Target: parental receptor binding domain (RBD) protein (amino acids 319 to 541 of the spike protein) with c-terminal … (SARS-CoV-2 (Wuhan-Hu-1), UniProt P0DTC2 319-541)
Test: ELISA, RBD coated, IgG detected with anti-human Fc-HRP

B1: R2C3 (R5C1) ultralong CDR3 chimeric bovine-human IgG1 antibody (antibody)
VH: QVQLRESGPSLVKPSQTLSLTCTASGFSLSDKPVGWVRQAPGKPLEWLGSIDTAENTGYNPGLKSRLSITKDNSKSQVSLSLSSVTTEDSATYYCATVHQKTRKEKSCPDGYLYSSNTGRGYDCGVWTCRRVGGEFCSATGDWTSPSEEDFYEFYVDTWGQGAPVTVSS
VL: QAVLNQPSSVSGSLGQRVSITCSGSSSNVGNGYVSWYQLIPGSAPRTLIYGDTSRASGVPDRFSGSRSGNTATLTISSLQAEDEADYFCASAEDSSSNAVFGSGTTLTVL
  binding result: binds

Source: patent publication US20240262893A1, “BINDING POLYPEPTIDES AGAINST SARS COV-2 AND USES THEREOF” (APPLIED BIOMEDICAL SCIENCE INSTITUTE, published 2024)
